Anti-infective test results gathered from many reports (values: NIAID ChemDB through PubChem).

All rows: host cell toxicity; cell line: MT-4; measure: CC50

Neighbouring rows are from separate reports.

| smiles | read by | value |
|---|---|---|
| N#Cc1cc(Cl)cc(Oc2cc(OCc3nc4cccc(Cl)c4o3)ccc2Cl)c1 | microscopy | >20 µM |
| CCOC1CSc2nc(Cc3cc(C)cc(C)c3)c(CC)c(=O)n21 |  | <100 µM |
| Nc1nc2c(ncn2O[C@H]2CO[C@@H](CO)O2)c(=O)[nH]1 |  | >100 µg/mL |
| Clc1ccc(-c2nnc3sc(-c4ccco4)nn23)cc1Cl |  | 27.2 µg/mL |
| C=C(C)[C@@H]1CC[C@]2(C(=O)NCCCCCCCC(=O)N[C@@H](CC(C)C)[C@H](O)CC(=O)O)CC[C@]3(C)[C@H](CC[C@@H]4[C@@]5(C)CC[C@H](OC(=O)CC(C)(C)C(=O)O)C(C)(C)[C@@H]5CC[C@]43C)[C@@H]12 |  | >10 µM |
| Cc1cc(-c2ccc(C#N)cc2)cc(C)c1Oc1ccnc(S(=O)(=O)C(C)C(=O)Nc2ccc(C#N)cc2)n1 | MTT | 15.38 µM |
| CC(C)(C)OC(=O)N(CCCCCC(=O)Nc1ccn([C@H]2CS[C@@H](COC(=O)CCCCCN(CCCCCN(Cc3ccccc3)C(=O)OC(C)(C)C)C(=O)OC(C)(C)C)O2)c(=O)n1)CCCCCN(Cc1ccccc1)C(=O)OC(C)(C)C |  | 10 µM |
| O=c1[nH]cnc2c1ncn2O[C@@H]1CO[C@@H](CO)O1 |  | >100 µg/mL |
| CN(C)c1ccc2c(COc3ccc(Cl)c(Oc4cc(Cl)cc(C#N)c4)c3)[nH]nc2n1 | microscopy | >20 µM |
| CCOC(=O)CNc1nc(Nc2ccc(C)cc2)nc(Oc2cc(=O)oc3ccccc23)n1 | MTT | 45.53 µg/mL |
| C=C(C)[C@@H]1CC[C@]2(C(=O)N[C@H](CC(C)C)C(=O)O)CC[C@]3(C)[C@H](CC[C@@H]4[C@@]5(C)CC[C@H](OC(=O)CC(C)(C)C(=O)O)C(C)(C)[C@@H]5CC[C@]43C)[C@@H]12 |  | 8 µM |
| CCc1c(Cc2ccccc2)n2c(nc1=O)SCC2CBr |  | >100 µM |
| CN(CC(N)=O)c1ccc2c(COc3ccc(Cl)c(Oc4cc(Cl)cc(C#N)c4)c3)[nH]nc2n1 | microscopy | >20 µM |
| CCOC(=O)c1[nH]c2ccc(Cl)cc2c1S(=O)(=O)C1CCC1 | microscopy | >10 µM |
| Cc1cc(C)c(-n2c(SCC(=O)Nc3ccccc3Br)nc3cccnc32)c(C)c1 | MTT | 5.6 µM |
| CC(CO)n1cnc2c(N)ncnc21 |  | >100 µM |
| Cc1cc(C)c(-n2c(SCC(=O)Nc3ccccc3F)nc3cccnc32)c(C)c1 | MTT | 5.6 µM |
| CC(C)(C)OC(=O)N(CCCCCCOC[C@H]1O[C@@H](n2ccc(N)nc2=O)CS1)CCCCCN(Cc1ccccc1)C(=O)OC(C)(C)C |  | 5 µM |
| O=C(O)c1csc(NC(=S)NCCc2ccccc2)n1 |  | >325 µM |
| O=c1cc(CCl)nc2c3ncn([C@H]4C[C@H](O)[C@@H](COP(=O)(O)O)O4)c3ncn12 |  | >1000 µM |
| CCOC1CSc2nc(Cc3ccccc3)c(CC)c(=O)n21 |  | >100 µM |
| N#Cc1cc(Cl)cc(Oc2cc(F)c(Cl)c(OCc3[nH]nc4ncccc34)c2)c1 | microscopy | >20 µM |
| S=C(NCCCc1ccccc1)Nc1nccs1 |  | >360 µM |
| C=C(C)[C@@H]1CC[C@]2(C(=O)NCCCCCCCCCCC(=O)O)CC[C@]3(C)[C@H](CC[C@@H]4[C@@]5(C)CC[C@H](OC(=O)CC(C)(C)C(=O)O)C(C)(C)[C@@H]5CC[C@]43C)[C@@H]12 |  | 6 µM |
| OC[C@H]1O[C@@H](On2cnc3c(Cl)ncnc32)CS1 |  | >100 µg/mL |
| C/C=C1/C(=O)NC(=O)N1[C@H]1C[C@H](N=[N+]=[N-])[C@@H](CO)O1 |  | ~100 µM |
| CC(C)(C)OC(=O)N(CCCCCC(=O)Nc1ccn([C@H]2CS[C@@H](CO)O2)c(=O)n1)Cc1ccccc1 |  | 100 µM |
| O=C(O)c1ccccc1/C=C/c1cc(F)cc(/C=C/C2C=CC=CC2)c1 | propidium iodide | 63 µM |
| Nn1c(-c2ccc(O)c(Cl)c2Cl)n[nH]c1=S | MTT | 72.83 µg/mL |
| C=C1C(n2cnc3c(N)ncnc32)C=CC1(CO)CO |  | 99 µM |
| COc1ccc(CCNc2nc(NC(=O)Nc3ccccc3)nc(Oc3cc(=O)oc4ccccc34)n2)cc1OC | MTT | 86.93 µg/mL |
| O=c1ccn2cnc3c(ncn3[C@@H]3O[C@H](CO)[C@@H](O)[C@H]3O)c2n1 |  | >1500 µM |
| Nc1ncnc2c1ncn2O[C@@H]1CO[C@@H](CO)O1 |  | >100 µg/mL |
| Nn1c(-c2ccc(O)c(Br)c2)n[nH]c1=S | MTT | 75.4 µg/mL |
| C=C1C(n2cc(C)c(=O)[nH]c2=O)C=CC1(CO)CO |  | 99 µM |
| CC(=O)c1ccc(NC(=O)CSc2nc3cccnc3n2-c2c(C)cc(C)cc2C)c(Br)c1 | MTT | 46 µM |
| COc1ccccc1NC(=O)Nc1nc(NCCc2ccc(OC)c(OC)c2)nc(Oc2cc(=O)oc3ccccc23)n1 | MTT | 25.48 µg/mL |
| CC(CO)n1cnc2c(Cl)ncnc21 |  | >100 µM |
| S=C(NCCc1cccc(Oc2ccccc2)c1)Nc1nccs1 |  | 14 µM |
| COc1ncnc2c1ncn2O[C@H]1CO[C@@H](CO)O1 |  | >100 µg/mL |
| Cc1cc(/C=C/C#N)cc(C)c1Oc1ccnc(S(=O)(=O)CC(=O)NCc2ccc(Cl)cc2)n1 | MTT | 1.43 µM |
| Nc1cc(O)ccc1-c1n[nH]c(=S)n1N | MTT | 12 µg/mL |
| NC[C@@H]1O[C@H](O[C@H]2[C@@H](O)[C@H](O[C@@H]3[C@@H](O)[C@H](N)C[C@H](N)[C@H]3O[C@H]3O[C@H](CN)[C@@H](O)[C@H](O)[C@H]3N)O[C@@H]2CO)[C@H](N)[C@@H](O)[C@@H]1O | propidium iodide | >2000 µM |
| CC(C)(C)OC(=O)N(CCCCCC(=O)OC[C@H]1O[C@@H](n2ccc(N)nc2=O)CS1)Cc1ccccc1 |  | 100 µM |
| c1cnc2c(c1)Cc1n[nH]nc1C2 | MTT | >100 µM |
| Cc1cn([C@H]2C[C@H](N=[N+]=[N-])[C@@H](CO)O2)c(=O)[nH]c1=O |  | 1.17 µM |
| CCOC(CSc1nc(Cc2cccc3ccccc23)c(CC)c(=O)[nH]1)OCC |  | <100 µM |
| [N-]=[N+]=N[C@H]1C[C@H](N2C(=O)NC(=O)/C2=C/c2ccccc2)O[C@@H]1CO |  | ~100 µM |
| c1c2c(cc3n[nH]nc13)NCCC2 | MTT | >100 µM |
| Clc1ccc(-c2nnc3sc(-c4ccc[nH]4)nn23)cc1Cl |  | 68.48 µg/mL |
| Cc1cc(-c2ccc(C#N)cc2)cc(C)c1Oc1ccnc(S(=O)(=O)CC(=O)NC(C)c2ccc(Br)cc2)n1 | MTT | 3.21 µM |
| CC(C)c1c(Cc2ccccc2)n2c(nc1=O)SCC2OCCO |  | >100 µM |
| CC(=O)Nc1ccc(C(=O)Nc2ccc(-c3nc4ccc(NC(=O)c5ccc(NC(C)=O)cc5)cc4[nH]3)cc2)cc1 | propidium iodide | >10 µM |
| Clc1ccc(-c2nnc3n2N=C(c2ccccc2)CS3)cc1Cl |  | 1.97 µg/mL |
| COc1ccc(CCNc2nc(NC(=S)Nc3cccc(C)c3)nc(Oc3cc(=O)oc4ccccc34)n2)cc1OC | MTT | 61.2 µg/mL |
| COc1cccc(OC)c1CCNC(=S)Nc1nccs1 |  | 37 µM |
| Nc1nc2c(ncn2OC2COC(CO)O2)c(=O)[nH]1 |  | >100 µg/mL |
| Nc1cc(O)ccc1-c1nnc2sc(-c3cc4ccccc4oc3=O)nn12 | MTT | 108.3 µg/mL |
| CCOC(=O)c1[nH]c2ccc(Cl)cc2c1SCCC(F)(F)F | microscopy | >10 µM |
| CC(C)(C)OC(=O)N(CCCCCCOC(=O)OC[C@H]1O[C@@H](n2ccc(N)nc2=O)CS1)CCCCCN(Cc1ccccc1)C(=O)OC(C)(C)C |  | 10 µM |
| N#Cc1cc(Cl)cc(Oc2cc(Cl)cc(OCC(=O)NC3CCS(=O)(=O)C3)c2)c1 | microscopy | >20 µM |
| Cc1cc(-c2ccc(C#N)cc2)cc(C)c1Oc1ccnc(S(=O)(=O)CC(=O)NCc2ccc(C#N)cc2)n1 | MTT | 51.23 µM |
| Cc1cc(C)c(-n2c(SCC(=O)Nc3ccccc3F)nc3cnccc32)c(C)c1 | MTT | 18 µM |
| C=C(C)[C@@H]1CC[C@]2(C(=O)NCCCCCCCC(=O)Nc3ccc(C(=O)O)cc3)CC[C@]3(C)[C@H](CC[C@@H]4[C@@]5(C)CC[C@H](OC(=O)CC(C)(C)C(=O)O)C(C)(C)[C@@H]5CC[C@]43C)[C@@H]12 |  | 9.5 µM |
| Nc1ccn([C@H]2CC[C@@H](CO)O2)c(=O)n1 |  | 48 µg/mL |
| NC(=O)c1[nH]c2ccc(Cl)cc2c1S(=O)(=O)CC1CCC1 | microscopy | >10 µM |
| O=C(/C=C/c1ccc(/C=C/C(=O)Nc2ccc(C3=NCCN3)cc2)cc1)Nc1ccc(C2=NCCN2)cc1 | propidium iodide | >10 µM |
| CCOC(=O)c1[nH]c2ccc(Cl)cc2c1SCC(F)(F)C(F)(F)F | microscopy | >10 µM |
| NC1=Nn2c(nnc2-c2ccc(Cl)c(Cl)c2)SC1 |  | 2.7 µg/mL |

The last 8 rows once more:

smiles	read by	value
Cc1cc(-c2ccc(C#N)cc2)cc(C)c1Oc1ccnc(S(=O)(=O)CC(=O)NCc2ccc(C#N)cc2)n1	MTT	51.23 µM
Cc1cc(C)c(-n2c(SCC(=O)Nc3ccccc3F)nc3cnccc32)c(C)c1	MTT	18 µM
C=C(C)[C@@H]1CC[C@]2(C(=O)NCCCCCCCC(=O)Nc3ccc(C(=O)O)cc3)CC[C@]3(C)[C@H](CC[C@@H]4[C@@]5(C)CC[C@H](OC(=O)CC(C)(C)C(=O)O)C(C)(C)[C@@H]5CC[C@]43C)[C@@H]12		9.5 µM
Nc1ccn([C@H]2CC[C@@H](CO)O2)c(=O)n1		48 µg/mL
NC(=O)c1[nH]c2ccc(Cl)cc2c1S(=O)(=O)CC1CCC1	microscopy	>10 µM
O=C(/C=C/c1ccc(/C=C/C(=O)Nc2ccc(C3=NCCN3)cc2)cc1)Nc1ccc(C2=NCCN2)cc1	propidium iodide	>10 µM
CCOC(=O)c1[nH]c2ccc(Cl)cc2c1SCC(F)(F)C(F)(F)F	microscopy	>10 µM
NC1=Nn2c(nnc2-c2ccc(Cl)c(Cl)c2)SC1		2.7 µg/mL

CCn is the concentration with n% toxicity to the cells. Blank or dashed fields: not listed here.